Data published in patent US20100323906.

Sequences of proteins named here, by UniProt entry; tags and fusion partners are left off. A change or cut given only in a name is not applied to a line headed by its entry.
UniProt P43870: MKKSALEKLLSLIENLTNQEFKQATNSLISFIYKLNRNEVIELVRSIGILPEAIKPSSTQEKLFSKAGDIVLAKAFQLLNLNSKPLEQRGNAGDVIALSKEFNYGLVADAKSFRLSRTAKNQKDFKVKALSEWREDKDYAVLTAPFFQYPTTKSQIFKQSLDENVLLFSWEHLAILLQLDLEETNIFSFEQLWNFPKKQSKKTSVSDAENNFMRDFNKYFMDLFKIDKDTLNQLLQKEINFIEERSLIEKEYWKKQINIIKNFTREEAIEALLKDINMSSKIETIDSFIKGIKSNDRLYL

Target: HindIII (UniProt P43870)
Assay: enzyme reaction in vitro
Conditions: 5'-dithiol on upper strand, tethered to 20 nm Au nanoparticle; removes 42 bp from distal end; 3.5 nM enzyme; purified recombinant protein; protein details: New England Biolabs; label: FITC on 5' of lower strand

Sequence: AAAGGATCCAAGCTTGAATTCCTCGAGAGATCTGTCGACGATATCGGTACCAAA (double strand) [54-bp ruler dsDNA]
- activity on this sequence: active
